# Mutational scan of HIV-1 Vif (LAI) in cells with APOBEC3G

Vif of LAI (a laboratory-adapted subtype B strain), residues 12-115; positions count from the first residue of the whole protein:
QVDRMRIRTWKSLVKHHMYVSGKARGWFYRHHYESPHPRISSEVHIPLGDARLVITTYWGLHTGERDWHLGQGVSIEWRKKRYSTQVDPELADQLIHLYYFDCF

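A pool of vif mutants was passaged twice, 72 h each, on SupT1 cells that express APOBEC3G. Each of three replicates was sequenced after round two and set against the merged round-one pool.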

Scale: log2 enrichment, wild type = 0; negative values mean that the variant was depleted. A change reads original residue, position, new residue. This list holds changes to valine only. The median of three replicates is given. Input reads are the counts in the merged round-one pool, before selection. The scan is noisy: the rank correlation of replicates is about 0.4 to 0.65, and variants with under about 50 input reads tend to read too high. Positive scores are uncertain; some enriched variants did not exclude APOBEC3G in a separate test. Not every substitution is listed.

For M16V (input reads 61) the result was 0.37.
For R17V (input reads 406) the result was -2.85.
For I18V (input reads 611) the result was 0.57.
For R19V (input reads 385) the result was -1.27.
For T20V (input reads 64) the result was 1.17.
For W21V (input reads 304) the result was -2.89.
For L24V (input reads 894) the result was -2.52.
For H28V (input reads 162) the result was 0.95.
For M29V (input reads 79) the result was -0.92.
For Y30V (input reads 512) the result was -1.07.
For G33V (input reads 1446) the result was -0.77.
For K34V (input reads 416) the result was -3.33.
For F39V (input reads 442) the result was -1.20.
For Y40V (input reads 812) the result was -1.64.
For R41V (input reads 405) the result was -3.20.
For H42V (input reads 2562) the result was -0.42.
For H43V (input reads 353) the result was -0.90.
For E45V (input reads 247) the result was -2.55.
For S46V (input reads 1248) the result was -2.84.
For P47V (input reads 497) the result was -0.07.
For P49V (input reads 18) the result was 1.68.
For E54V (input reads 445) the result was -1.52.
For I57V (input reads 319) the result was -4.89.
For G60V (input reads 1102) the result was -1.74.
For I66V (input reads 528) the result was -2.46.
For T67V (input reads 144) the result was 4.01.
For T68V (input reads 640) the result was -1.57.
For Y69V (input reads 24) the result was -2.42.
For G71V (input reads 722) the result was -2.94.
For L72V (input reads 129) the result was -2.67.
For H73V (input reads 773) the result was -1.44.
For T74V (input reads 437) the result was -1.46.
For E76V (input reads 931) the result was -1.00.
For D78V (input reads 1710) the result was -0.89.
For W79V (input reads 353) the result was -0.62.
For H80V (input reads 34) the result was 1.45.
For L81V (input reads 1464) the result was -0.08.
For S86V (input reads 540) the result was 0.27.
For I87V (input reads 883) the result was -1.84.
For E88V (input reads 31) the result was 1.29.
For W89V (input reads 40) the result was -1.55.
For K91V (input reads 373) the result was -4.76.
For K92V (input reads 345) the result was -1.59.
For Q97V (input reads 411) the result was -3.31.
For D99V (input reads 28) the result was 4.96.
For L102V (input reads 130) the result was -2.70.
For A103V (input reads 608) the result was -3.60.
For D104V (input reads 17) the result was -1.49.
For L106V (input reads 106) the result was -4.07.
For H108V (input reads 161) the result was -1.00.
For L109V (input reads 143) the result was -0.35.
For F112V (input reads 128) the result was -2.51.
For D113V (input reads 153) the result was 0.83.
For C114V (input reads 47) the result was -3.39.

The first 6 entries again:

| mutation | input reads | log2 enrichment (median) |
|---|---|---|
| M16V | 61 | 0.37 |
| R17V | 406 | -2.85 |
| I18V | 611 | 0.57 |
| R19V | 385 | -1.27 |
| T20V | 64 | 1.17 |
| W21V | 304 | -2.89 |

The measurements come from Langley et al. 2025, preprint (doi:10.1101/2025.10.20.683452).